Measured values from US9181310B2 (priority 2003, dated 2015).

System: X. citri
Conditions: in vivo

B1: BombBC: Bacteriophage Outer Membrane Breaching protein of Xanthomonas phage P15 (Xp15) ORF BC, 17.9 kD, SEQ ID NO. 17 (protein, listed as Xanthomonas campestris)
chain: MSDQTDTTQTTPAEKAPPKEIIRGRMPIAVVALARFGSQSTTTTKAAADALGTTVGKIDDIRKNRNFAYVTADFKPTEAQKADGIEWLKRHPVGADALIEELQNLPVATAEESAAFEQVRASARGQNAKTAEGEVAQAGGGNRRKKKEKPAEAGEVQNPPAADGDSLLS
pathogenic symptoms caused by X. citri: greatly reduced
